Results of unrelated studies side by side (data: NIAID ChemDB).

Shared fields: growth or infection tests; agent: HIV-1; cells: MT-4; measure: EC50

ECn: concentration that inhibits the pathogen or its effect by n%. Blank or dashed fields: not listed here. Conditions beyond the fields shown may differ between rows.

C=C(Cn1cnc2c(=O)[nH]c(N)nc21)OCP(=O)(O)OP(=O)(O)OP(=O)(O)O ; method: cytopathic effect / MTT ; result: >200 µM
Cc1cn([C@@H]2O[C@H](CO)C3(OS(=O)(=O)C=C3N)[C@H]2O)c(=O)[nH]c1=O ; strain: IIIB ; method: cytopathic effect / trypan blue ; result: >300 µM
COc1c(CC=C(C)C)c(O)cc2c1[C@@H]1Oc3cc(O)c(CC=C(C)C)cc3[C@@H]1CO2 ; strain: IIIB ; method: cytopathic effect / MTT ; result: >20 µg/mL
Cc1cc(C)c(Nc2nc(NC3CCN(Cc4ccc(Br)cc4)CC3)nc3nc[nH]c23)c(C)c1 ; strain: IIIB ; method: MTT ; result: >11.45 µM
C[C@H](Cn1cnc2c(N)ncnc21)OCP(=O)(O)OP(=O)(O)OP(=O)(O)O ; method: cytopathic effect / MTT ; result: >200 µM
COc1cc(O)c2c(=O)c(OC)c(-c3ccc(O)cc3)oc2c1 ; strain: IIIB ; method: MTT ; result: 2.5 µg/mL
O=C(/C=C/c1ccc(O)c(O)c1)c1ccc(O)cc1 ; method: cytopathic effect / MTT ; result: >4.4 µM
CC(C)=CCc1c(O)cc(O)c2c1O[C@H](c1ccccc1)CC2=O ; strain: IIIB ; method: MTT ; result: >100 µg/mL
Nc1ncnc2c1ncn2[C@H]1CC[C@@H](CO)O1 ; strain: IIIB ; method: cytopathic effect ; result: 10 µM
COC(=O)c1cc(O)c(O)c(O)c1 ; strain: IIIB ; method: cytopathic effect / MTT ; result: >12.5 µg/mL
Cc1ccnc2c1NC(=O)c1cccnc1N2C1CC1 ; method: cytopathic effect / MTT ; result: 0.01 µM
CC(=O)SCCOP(=O)(OCCSC(C)=O)OC[C@@H]1CC[C@H](n2cnc3c(N)ncnc32)O1 ; strain: IIIB ; method: cytopathic effect ; result: 0.011 µM
CC(C)c1nc(SCC(N)=O)n(Cc2ccncc2)c1Cc1ccccc1 ; strain: IIIB ; method: cytopathic effect / MTT ; result: 30.57 µM
N#C[C@]1(CO)O[C@@H](n2cnc3c(=O)[nH]cnc32)C[C@@H]1O ; strain: IIIB ; method: cytopathic effect / MTT ; result: 0.051 µM
CC(C)Nc1cccnc1N1CCN(C(=O)c2cc3cc(NS(C)(=O)=O)ccc3[nH]2)CC1 ; strain: RES056 ; method: MTT ; result: >43.81 µM
CCCCC1(O)C(=O)C=C2N(C1=O)c1ccccc1C2(C)C ; strain: RF ; method: cytopathic effect / MTT ; result: >100 µM
Oc1cc(O)c2c(c1)O[C@H](c1ccc(O)c(O)c1)[C@H](O)C2 ; strain: IIIB ; method: cytopathic effect / MTT ; result: >100 µg/mL
Cc1cc(C)cc(CC(N)C(=O)C(C)C)c1 ; strain: IIIB ; method: cytopathic effect / MTT ; result: 32.77 µM
Oc1cccc(CN(CCN2CCCCC2)CC2CCCN(C3CCCC3)C2)c1 ; strain: NL4-3 ; method: MTT ; result: 1.5 µM
O=C(O[C@@H]1[C@@H](OC(=O)c2cc(O)c(O)c(O)c2)[C@H](O)[C@@H](CO)O[C@H]1O)c1cc(O)c(O)c(O)c1 ; strain: IIIB ; method: cytopathic effect / MTT ; result: >50 µg/mL
Cc1cn(CCOCP(=O)(O)O)c(=O)[nH]c1=O ; strain: IIIB ; method: cytopathic effect / trypan blue ; result: >125 µM
O=C1C(=O)N(CCOCCN2C(=O)C(=O)c3cc(Cl)ccc32)c2ccc(Cl)cc21 ; strain: IIIB ; method: MTT ; result: >184 µM
CC(C)=CCc1c([C@@H]2CCc3ccc(O)cc3O2)cc2c(c1O)OC(C)(C)C=C2 ; strain: IIIB ; method: MTT ; result: >20 µg/mL
C=CCn1c(=O)c(C)cn([C@@H]2O[C@H](CO[Si](C)(C)C(C)(C)C)C3(OS(=O)(=O)C=C3N)[C@H]2O[Si](C)(C)C(C)(C)C)c1=O ; strain: HE ; method: cytopathic effect / trypan blue ; result: 0.164 µM
O=C1C(=O)N(CCOCCN2C(=O)C(=O)c3cc(F)ccc32)c2ccc(F)cc21 ; strain: IIIB ; method: MTT ; result: 32.16 µM
CC(C)c1nc(SCC(N)=O)n(COCc2ccccc2)c1CC1CCCCC1 ; strain: IIIB ; method: cytopathic effect / MTT ; result: 4.29 µM
COC(=O)c1ccc(CN2CCC(Nc3nc(Nc4c(C)cc(C)cc4C)c4[nH]cnc4n3)CC2)cc1 ; strain: RES056 ; method: MTT ; result: >24.06 µM
COc1c(O)c(I)c2c(c1OC)-c1c(c(I)c(O)c(OC)c1OC)C[C@H](C)[C@H](C)C2 ; strain: TIBO-resistant L100I (RT-L100I) ; changes: RT-L100I ; method: cytopathic effect / MTT ; result: 0.66 µM
NC(=O)N=Nc1c(O)n(CCOCCn2c(O)c(N=NC(N)=O)c3ccccc32)c2ccccc12 ; strain: IIIB ; method: MTT ; result: >121 µM
Cc1cccc(C)c1CNC(=O)[C@H]1N(C(=O)[C@@H](O)C[C@@H](Cc2ccccc2)C(=O)N[C@H]2c3ccccc3C[C@H]2O)CSC1(C)C ; changes: PR-K60C ; method: p24 ; result: <0.125 µM
Cc1cc(C)c(Nc2nc(NC3CCN(Cc4cccc(F)c4)CC3)nc3nc[nH]c23)c(C)c1 ; strain: RES056 ; method: MTT ; result: >30.68 µM
Nc1nc2c(ncn2[C@H]2CC[C@@H](CO)O2)c(=O)[nH]1 ; method: cytopathic effect / MTT ; result: 0.11 µM
Cc1cn([C@H]2C[C@H](N=[N+]=[N-])[C@@H](CO)O2)c(=O)[nH]c1=O ; strain: MN ; method: cytopathic effect / MTT ; result: 0.0033 µg/mL
CC1(C)C2=CC(=O)C(O)(c3ccccc3)C(=O)N2c2ccc(Cl)cc21 ; strain: RF ; method: cytopathic effect / MTT ; result: 0.8 µM
CCn1c(Cc2ccccc2)c(C(C)C)[nH]c1=S ; strain: IIIB ; method: cytopathic effect / MTT ; result: 5.06 µM
O=C1/C(=C/c2ccc(O)c(O)c2)Cc2ccccc21 ; method: cytopathic effect / MTT ; result: >5.5 µM
COc1ccc(CN(CCN2CCCCC2)CC2CCCN(C3CCCC3)C2)cc1O ; strain: NL4-3 ; method: MTT ; result: 2.6 µM
Nc1ncnc2c1ncn2[C@H]1CC[C@@H](CO)O1 ; method: cytopathic effect / MTT ; result: 10 µM
CC(C)=CCc1c(O)cc(O)c2c(=O)c(O[C@@H]3O[C@@H](C)[C@H](O)[C@@H](O)[C@H]3O)c(-c3ccc(O)cc3)oc12 ; strain: IIIB ; method: cytopathic effect / MTT ; result: >500 µg/mL
NOCc1cc(Cl)ccc1Cl ; strain: IIIB ; method: cytopathic effect / MTT ; result: 7.96 µg/mL
CO[C@H]1CC[C@H](C)N2C[C@H]1n1cc(C(=O)NCc3c(F)cc(F)cc3F)c(=O)c(O)c1C2O ; strain: IIIB ; method: luminescence ; result: 0.0015 µM
COc1c(O)c(Cl)c2c(c1OC)-c1c(c(Cl)c(O)c(OC)c1OC)C[C@H](C)[C@H](C)C2 ; strain: IIIB ; method: cytopathic effect / MTT ; result: 1.42 µM
O=c1ccn(CCOCP(=O)(O)O)c(=O)[nH]1 ; strain: IIIB ; method: cytopathic effect / trypan blue ; result: >125 µM
CC1(C)C=Cc2c(ccc3c2OC[C@@H](c2ccc(O)cc2O)C3)O1 ; strain: IIIB ; method: MTT ; result: 2 µg/mL
Cc1cc(C)c(Nc2nc(NC3CCN(Cc4cccc(C#N)c4)CC3)nc3nc[nH]c23)c(C)c1 ; strain: IIIB ; method: MTT ; result: >25.4 µM
NOCc1ccccc1Cl ; strain: IIIB ; method: cytopathic effect / MTT ; result: 13.8 µg/mL
Cc1ccnc2c1NC(=O)c1cccnc1N2C1CC1 ; changes: RT-L74V K103N ; result: <3 µM
Nc1ncnc2c1ncn2CCOCP(=O)(O)O ; method: cytopathic effect / MTT ; result: 4.8 µM
O=C1/C(=C/c2ccc(O)c(O)c2)COC/C1=C\c1ccc(O)c(O)c1 ; method: cytopathic effect / MTT ; result: >10 µM
Nc1ncnc2c1ncn2CCOCP(=O)(O)O ; strain: IIIB ; method: cytopathic effect / trypan blue ; result: 2 µM
Cc1cn([C@H]2C[C@H](N=[N+]=[N-])[C@@H](CO)O2)c(=O)[nH]c1=O ; strain: KMR15 ; method: cytopathic effect / trypan blue ; result: 0.016 µM
Cn1cc(C(=O)O)c(=O)c2cc(F)c(N3CC=C(c4ccccc4)CC3)c(C(F)(F)F)c21 ; strain: IIIB ; method: cytopathic effect / MTT ; result: 0.2 µM
O=C(O[C@@H]1Cc2c(O)cc(O)cc2O[C@@H]1c1ccc(O)c(O)c1)c1cc(O)c(O)c(O)c1 ; strain: IIIB ; method: cytopathic effect / MTT ; result: >50 µg/mL
C=C1[C@H](CO)[C@@H](O)C[C@@H]1n1cnc2c(=O)[nH]c(N)nc21 ; strain: IIIB ; method: MTT ; result: 0.0095 µM
COc1cc(/C=C/c2cc[n+]3c(c2)-c2c(c(C)c(C)c4c2-c2cc(/C=C/c5cc(OC)c(OC)cc5COc5ccccc5)cc[n+]2CC4)CC3)c(COc2ccccc2)cc1OC.O=S(=O)([O-])C(F)(F)F.O=S(=O)([O-])C(F)(F)F ; strain: NL4-3 ; method: visual reading / absorbance ; result: 1.76 µM
COc1cc(O)c2c(=O)c(Oc3ccccc3)coc2c1 ; strain: IIIB ; method: cytopathic effect / MTT ; result: >100 µg/mL
O=C(/C=C(O)/C=C/c1ccccc1)/C=C/c1ccccc1 ; method: cytopathic effect / MTT ; result: >41 µM
CC1(C)C2=CC(=O)C(c3ccccc3)([N+](=O)[O-])C(=O)N2c2ccc(Cl)cc21 ; strain: RF ; method: cytopathic effect / MTT ; result: 13.4 µM
COc1ccc(/C=C/C(=O)/C=C/c2ccc(OC)c(OC)c2)cc1OC ; method: cytopathic effect / MTT ; result: >4.1 µM
Cc1cc(C)c(Nc2nc(NC3CCN(Cc4ccccn4)CC3)nc3nc[nH]c23)c(C)c1 ; strain: RES056 ; method: MTT ; result: >114 µM
Cc1cc(C)cc(Cc2c(C(C)C)nc(SCC(N)=O)n2Cc2ccncc2)c1 ; strain: IIIB ; method: cytopathic effect / MTT ; result: 0.31 µM
CC(C)(C)NC(=O)[C@@H]1CN(Cc2ccc(Cl)c(Cl)c2)CCN1C[C@@H](O)C[C@@H](Cc1ccccc1)C(=O)N[C@H]1c2ccccc2C[C@H]1O ; strain: IIIB ; method: p24 ; result: <0.2 µM
O=C(O)C[C@@H]1C(=O)O[C@H]2[C@@H]3OC(=O)c4cc(O)c(O)c(O)c4-c4c(cc(O)c(O)c4O)C(=O)OC[C@H]2O[C@@H](OC(=O)c2cc(O)c(O)c(O)c2)[C@@H]3OC(=O)c2cc(O)c(O)c3c2[C@H]1[C@H](O)C(=O)O3 ; strain: IIIB ; method: cytopathic effect / MTT ; result: >25 µg/mL
CC1(C)CCc2c(cc(O)c3c(=O)c4c(oc23)-c2ccc(O)cc2OC(C(C)(C)O)C4)O1 ; strain: IIIB ; method: cytopathic effect / MTT ; result: >40 µg/mL
CO/N=C1\C(=O)N(CCOCCN2C(=O)/C(=N/OC)c3ccccc32)c2ccccc21 ; strain: IIIB ; method: MTT ; result: >11.97 µM
C=S(=C)(C)c1ccc(CN2CCC(Nc3nc(Nc4c(C)cc(C)cc4C)c4[nH]cnc4n3)CC2)cc1 ; strain: RES056 ; method: MTT ; result: >34.64 µM
CO[P@](=O)(c1cc(C)cc(/C=C/C#N)c1)c1c(C(N)=O)[nH]c2ccc(Cl)cc12 ; strain: NL4-3 ; changes: K103N/Y181C ; method: ELISA ; result: 0.0065 µM

A second listing of 4 rows from above:

smiles	strain	changes	method	result
Cc1ccnc2c1NC(=O)c1cccnc1N2C1CC1	-	RT-L74V K103N	-	<3 µM
CC(C)c1nc(SCC(N)=O)n(Cc2ccncc2)c1Cc1ccccc1	IIIB	-	cytopathic effect / MTT	30.57 µM
Nc1ncnc2c1ncn2[C@H]1CC[C@@H](CO)O1	IIIB	-	cytopathic effect	10 µM
CC1(C)CCc2c(cc(O)c3c(=O)c4c(oc23)-c2ccc(O)cc2OC(C(C)(C)O)C4)O1	IIIB	-	cytopathic effect / MTT	>40 µg/mL